Pooled drug test results. Numbers come from NIAID ChemDB, via PubChem.

All rows: tests in culture; agent: Mycobacterium tuberculosis

Neighbouring rows are from separate reports.

compound,read-out,strain,setting,mutations,cell line,read by,tested at,result
CCCCN(C)c1nc(CC)nc2sc(C)cc12,EC50,Erdman,-,-,-,resazurin,-,3.8 µM
Cc1cc(C)c2c(=O)n(CC(O)CN3CCN(CCO)CC3)sc2n1,EC50,H37Rv,-,-,-,-,-,>12.5 µg/mL
O=S(=O)(O)c1cc(O)c2c(N=Nc3ccc(Nc4ccccc4)c4c(S(=O)(=O)O)cccc34)cc(S(=O)(=O)O)cc2c1,inhibition,H37Rv,-,-,-,BACTEC,12.5 µg/mL,18%
Cc1ccc(-n2c(=O)oc3ccc(C)cc3c2=S)cc1,MIC,My 331/88,14 d,-,-,-,-,0.5 µM
COC(=O)/C(=C\c1cccc(OC(C)=O)c1)Oc1cccc(C(=O)OC)c1O,EC50,-,-,-,-,resazurin,-,460 µM
COc1ccccc1/C=N/NC(=O)[C@H](CO)NC(=O)OCc1ccccc1,MIC,H37Rv,-,-,-,resazurin,-,>100 µg/mL
C=C1C(=O)O[C@H]2[C@H]1CC/C(C)=C/CC[C@@]1(C)O[C@@H]21,MIC,-,-,-,-,-,-,16 µg/mL
CCCCc1nc(Cl)c(/C=N/NC(N)=S)n1CCCN1CCN(c2ccc([N+](=O)[O-])cc2)CC1,MIC,H37Rv,-,-,-,agar,-,50 µg/mL
Cc1ccc2oc(=O)n(-c3cccc(F)c3)c(=S)c2c1,MIC,My 331/88,14 d,-,-,-,-,4 µM
CO[C@H]1/C=C/O[C@@]2(C)Oc3c(C)c(O)c4c(O)c(cc(O)c4c3C2=O)NC(=O)/C(C)=C\C=C\[C@H](C)[C@H](O)[C@@H](C)[C@@H](O)[C@@H](C)[C@H](OC(C)=O)[C@@H]1C,MIC,Aoyama B (streptomycin-resistant),-,-,-,-,-,12.5 µg/mL
Cc1ccc(S(=O)(=O)OCCn2sc3nc(C)cc(C)c3c2=O)cc1,EC50,H37Rv,-,-,-,-,-,>12.5 µg/mL
Cc1onc(-c2ccccc2)c1C1=N/C(=C/c2ccc(N(C)C)cc2)C(=O)O1,inhibition,H37Rv,-,-,-,resazurin,6.25 µg/mL,2%
CCCCc1nc(Cl)c(/C=N/NC(N)=S)n1CCCN1CCN(C/C=C/c2ccccc2)CC1,MIC,H37Rv,-,-,-,agar,-,6.25 µg/mL
Fc1ccccc1-n1ncc(C(c2ccccc2)n2ccnc2)c1-c1ccccc1,MIC90,ATCC 27294,-,-,-,-,-,>100 µM
COC(=O)/C(=C\c1cccc(Cl)c1)Oc1cccc(C(=O)OC)c1O,EC50,-,-,-,-,resazurin,-,204 µM
COC(=O)C1C(=O)C(C(=O)OC)C2C(C(=O)OC)C(=O)C(C(=O)OC)C12,MIC bound,H37Rv,-,-,-,BACTEC,-,>12.5 µg/mL
CCc1nc(NC(C(=O)O)C(C)C)c2cc(C)sc2n1,EC50,Erdman,-,-,-,resazurin,-,3.2 µM
CSCCC(NC(=O)OCc1ccccc1)C(=O)NC(CO)C(=O)O,MIC,H37Rv,-,-,-,BACTEC,-,≥12.8 µg/mL
Clc1ccc(-n2ncc(C(c3ccccc3)n3ccnc3)c2-c2ccccc2)cc1,MIC50,ATCC 27294,-,-,-,-,-,10.7 µM
C=C1C(=O)O[C@H]2[C@H]1CCC1(C)O[C@@H]1CC[C@@]1(C)O[C@@H]21,MIC,-,-,-,-,-,-,128 µg/mL
Cc1nc2ccccc2c(N)c1-c1cc(C)c2c(C)nc3ccccc3c2n1,MIC bound,H37Rv,-,-,-,BACTEC,-,>12.5 µg/mL
NNC(=O)c1ccncc1,MIC,H37Rv,-,-,-,-,-,<0.016 µg/mL
CCCCC1CCCCCCc2[nH]c(/C=C3\N=C(c4ccc[nH]4)C=C3OC)cc21.Cl,inhibition,H37Rv,-,-,-,BACTEC,12.5 µg/mL,100%
CCc1nc(NCCCOC(C)C)c2cc(C)sc2n1,EC50,Erdman,-,-,-,resazurin,-,0.32 µM
CC1COc2c(N3CCN(C)CC3)c(F)cc3c(=O)c(C(=O)O)cn1c23,MIC,H37Rv,-,-,-,-,-,0.5 µg/mL
CCCCCCCC/C=C\CCCCCCCC(=O)O,MIC,-,-,-,-,-,-,50 µM
Cc1cc(C)c2c(n1)S(=O)(=O)N(CC(=O)c1ccccc1)C2=O,inhibition,H37Rv,-,-,-,-,12.5 µg/mL,36%
Clc1ccccc1C(c1ccccc1)(c1ccccc1)n1ccnc1,MIC90,ATCC 35820 (streptomycin-resistant),-,-,-,-,-,≥100 µM
CCCCC/C=C\C/C=C\CCCCCCCC(=O)O,MIC,-,-,-,-,-,-,50 µM
O=C(N[C@@H](CO)C(=O)N/N=C/c1ccccc1O)OCc1ccccc1,MIC,H37Rv,-,-,-,resazurin,-,>100 µg/mL
Cc1cc(C)c2c(=O)n(CC(O)CN3CCC(Cc4ccccc4)CC3)sc2n1,MIC,H37Rv,-,-,-,-,-,<12.5 µg/mL
CCCCNc1nc(CC)nc2sc(C)cc12,EC50,Erdman,-,-,-,resazurin,-,2.7 µM
Cc1cc(C)nc(NS(=O)(=O)c2ccc(N3C(=O)c4ccccc4C3=O)cc2)n1,MIC90,H37Rv,-,-,-,resazurin,-,125 µg/mL
CCCCCCOC(=O)c1cnccn1,MIC90,-,pH 6.6,Pyrazinamide-resistant,-,resazurin,-,>480 µM
Fc1ccc(-n2ncc(C(c3ccccc3)n3ccnc3)c2-c2ccccc2)c(F)c1,MIC50,ATCC 35820 (streptomycin-resistant),-,-,-,-,-,≥100 µM
CC1OC1C(=O)C1(O)C(C)C(O)C23OC2(C(O)c2c(O)cccc2C3=O)C1O,MIC,H37Rv,-,-,-,BACTEC,-,≥12.8 µg/mL
COC(=O)/C(=C\c1cccc(Br)c1)Oc1cccc(C(=O)OC)c1O,EC50,-,-,-,-,resazurin,-,248 µM
NNC(=O)c1cccc2ccccc12,MIC bound,H37Rv,-,-,-,BACTEC,-,>12.5 µg/mL
C=C1CC[C@@H](O)[C@]2(C)CC[C@@H]3[C@H](OC(=O)[C@H]3C)[C@@H]12,MIC,-,-,-,-,-,-,>128 µg/mL
Fc1ccccc1-c1c(C(c2ccccc2)n2ccnc2)cnn1-c1ccccc1F,MIC50,ATCC 35828 (pyrazinamide-resistant),-,-,-,-,-,≥100 µM
CCN(CCO)Cc1c(-c2ccccc2)oc(-c2ccccc2)c1Cl,MIC,H37Rv,-,-,VERO,BACTEC,-,12.5 µg/mL
Fc1ccc(-c2c(C(c3ccccc3)n3ccnc3)cnn2-c2ccc(F)cc2F)cc1,MIC50,ATCC 27294,-,-,-,-,-,21.1 µM
CO[C@H]1O[C@@H]2COC(c3ccccc3)O[C@H]2[C@@H]2OC(c3ccccc3)O[C@H]12,inhibition,H37Rv,-,-,-,BACTEC,12.5 µg/mL,0%
CC(C)CCOc1ccc(N=c2scc(C(C)(C)C)n2-c2ccc(OCCC(C)C)cc2)cc1,MIC,H37Rv,-,-,-,-,-,>125 µg/mL
NNC(=O)c1ccncc1,MIC50,ATCC 35822 (isoniazid-resistant),-,-,-,-,-,≥100 µM
CN1C[C@H](C(=O)N[C@]2(C)O[C@@]3(O)[C@@H]4CCCN4C(=O)[C@H](Cc4ccccc4)N3C2=O)C=C2c3cccc4[nH]cc(c34)C[C@H]21,inhibition,H37Rv,-,-,-,BACTEC,12.5 µg/mL,0%
CCCCOc1ccc(N=c2scc(C)n2-c2ccc(OCCN(CC)CC)cc2)cc1,MIC,H37Rv,-,-,-,-,-,32 µg/mL
COc1ccc(/C=N/NC(=O)[C@H](CO)NC(=O)OC(C)(C)C)cc1OC,MIC,H37Rv,-,-,-,resazurin,-,>100 µg/mL
CC(C)(C)CC(C)(O)CN(CC(C)(O)CC(C)(C)C)C(=S)S,MIC,KM-R,-,-,-,-,-,12.5 µg/mL
CCCCc1nc(Cl)c(/C=N/NC(N)=S)n1CCCN1CCN(c2ccccc2Cl)CC1,MIC,H37Rv,-,-,-,agar,-,25 µg/mL
CC(C)=NOC(=O)CNC(=O)C(Cc1ccccc1)NC(=O)C(C)NC(=O)OC(C)(C)C,MIC bound,H37Rv,-,-,-,resazurin,-,>6.25 µg/mL
CC1COc2c(N3CCN(C)CC3)c(F)cc3c(=O)c(C(=O)O)cn1c23,MIC90,25 strains,-,-,-,-,-,0.78 µg/mL
COC(=O)C(CO)NC(=O)CNC(=O)OCc1ccccc1,MIC bound,H37Rv,-,-,-,BACTEC,-,>12.8 µg/mL
Cc1cc(C)c2c(n1)S(=O)(=O)N/C(=C(/O)c1ccccc1)C2=O,EC50,H37Rv,-,-,-,-,-,>12.5 µg/mL
CO[C@H]1/C=C/O[C@@]2(C)Oc3c(C)c(O)c4c(O)c(c(/C=N/N5CCN(C)CC5)c(O)c4c3C2=O)NC(=O)/C(C)=C\C=C\[C@H](C)[C@H](O)[C@@H](C)[C@@H](O)[C@@H](C)[C@H](OC(C)=O)[C@@H]1C,MIC90,H37Rv,-,-,-,resazurin,-,0.09 µM
CC[C@@H](CO)NCCN[C@@H](CC)CO,MIC,H37Rv,-,-,-,agar,-,3.13 µg/mL
S=c1oc2ccc(Br)cc2c(=S)n1-c1ccccc1,MIC,My 331/88,14 d,-,-,-,-,2 µM
CCCCCCCCC(=O)NNC(=O)c1ccncc1,MIC,H37Rv,-,-,-,-,-,0.025 µg/mL
O=C1CN=C(c2ccc[nH]2)c2cc(Cl)ccc2N1,inhibition,H37Rv,-,-,-,BACTEC,128 µg/mL,61%
CCCCc1nc(Cl)c(/C=N/NC(N)=S)n1CCCN1CCN(Cc2ccc3c(c2)OCO3)CC1,MIC,H37Rv,-,-,-,agar,-,12.5 µg/mL
CN(C=O)C(=S)[S][Sb]([S]C(=S)N(C)C=O)[S]c1nc2ccc(N=Nc3ccc(NS(=O)(=O)c4ccc(NC(=O)C(Cl)Cl)cc4)cc3)cc2s1,MIC,H37Rv,-,-,-,BACTEC,-,32 µg/mL
Cc1cc(C)c2c(n1)S(=O)(=O)N(CCO)C2=O,inhibition,H37Rv,-,-,-,-,12.5 µg/mL,29%
Clc1ccc(-n2ncc(C(c3ccccc3)n3ccnc3)c2-c2ccccc2)c(Cl)c1,MIC90,ATCC 35828 (pyrazinamide-resistant),-,-,-,-,-,88.5 µM
NS(=O)(=O)c1ccc(NC2=C(Cl)C(=O)c3ccccc3C2=O)cc1,MIC bound,H37Rv,-,-,-,BACTEC,-,>12.5 µg/mL
CC(C)=CCC[C@H](C)CCOCCCCCC(=O)O,MIC,-,-,-,-,-,-,>1000 µM
CCCCc1nc(Cl)c(/C=N/NC(N)=S)n1CCCN1CCN(c2ccccc2F)CC1,MIC,H37Rv,-,-,-,agar,-,25 µg/mL
CC(C)(C)OC(=O)N[C@@H](CO)C(=O)N/N=C/c1ccccc1,MIC,H37Rv,-,-,-,resazurin,-,>100 µg/mL
CC1=CC[C@@H](O)[C@]2(C)CC[C@@H]3[C@H](OC(=O)[C@H]3C)[C@@H]12,MIC,-,-,-,-,-,-,>128 µg/mL
CC(C)CCOc1ccc(N=C2SC(C)C(=O)N2c2ccc(OCCC(C)C)cc2)cc1,MIC,H37Rv,-,-,-,-,-,32 µg/mL
CCOC(=O)Cn1sc2nc(C)cc(C)c2c1=O,EC50,H37Rv,-,-,-,-,-,<12.5 µg/mL
CCCCc1nc(Cl)c(/C=N/NC(N)=S)n1CCCN1CCN(Cc2ccccc2)CC1,MIC,H37Rv,-,-,-,agar,-,50 µg/mL
NC(=O)c1cnccn1,MIC90,-,pH 6.6,Pyrazinamide-resistant,-,resazurin,-,>100 µM
O=C(N[C@@H](CO)C(=O)N/N=C/c1ccccc1)OCc1ccccc1,MIC,H37Rv,-,-,-,resazurin,-,>100 µg/mL
COc1ccc2oc(=O)n(-c3cccc(F)c3)c(=S)c2c1,MIC,My 331/88,14 d,-,-,-,-,16 µM
O=C(N[C@@H](CO)C(=O)N/N=C/c1ccc([N+](=O)[O-])cc1)OCc1ccccc1,MIC,H37Rv,-,-,-,resazurin,-,>100 µg/mL
COc1cc(C2=NN(C(=O)COc3ccc4ccccc4c3)[C@H](Cc3ccccc3)C2)c(C)cc1OCC(=O)O,MIC,Isoniazid-resistant,-,-,-,-,-,>6.25 µg/mL
CC(C)CCOc1ccc(N=c2scc(CCN3CCCCC3)n2-c2ccc(OCCC(C)C)cc2)cc1,MIC,H37Rv,-,-,-,-,-,24 µg/mL
O=C(OCCCl)c1cnccn1,MIC90,-,pH 6.6,Pyrazinamide-resistant,-,resazurin,-,>536 µM
Cc1ccc(NCCNCCO)c2c(=O)c3cc(O)ccc3sc12,inhibition,H37Rv,-,-,-,BACTEC,12.5 µg/mL,97%
CCc1nc(NCCCc2ccccc2)c2cc(C)sc2n1,EC50,Erdman,-,-,-,resazurin,-,0.083 µM
C/C(=N\NC(=O)C[N+](C)(C)C)c1sc(-c2cccnc2)nc1C.[Cl-],MIC bound,H37Rv,-,-,-,BACTEC,-,>12.5 µg/mL
C/C=C(\Oc1cccc(C(=O)OC)c1O)C(=O)OC,EC50,-,-,-,-,resazurin,-,792 µM
C/C1=C\[C@H]2OC(=O)[C@@H](C)[C@@H]2CCC2(C)O[C@@H]2CC1,MIC,-,-,-,-,-,-,128 µg/mL
CN[C@@H]1[C@@H](O)C(O[C@@H]2[C@@H](O)[C@H](OC3O[C@H](CN)[C@@H](O)[C@H](O)[C@H]3O)[C@@H](N)C[C@H]2NC(=O)[C@@H](O)CN)OC[C@]1(C)O,MIC,T4,-,-,-,-,-,0.78 µg/mL
COc1cccc(/C=N/NC(=O)[C@H](CO)NC(=O)OC(C)(C)C)c1O,MIC,H37Rv,-,-,-,resazurin,-,>100 µg/mL
Cc1cc(NCCCCCCCCNc2cc(C)nc3cc(N(C)C)ccc23)c2ccc(N(C)C)cc2n1,inhibition,H37Rv,-,-,-,BACTEC,12.5 µg/mL,70%
COC(=O)/C(=C\c1ccccc1C(F)(F)F)Oc1cccc(C(=O)OC)c1O,EC50,-,-,-,-,resazurin,-,25 µM

ECn is the concentration giving n% inhibition of infection, replication or growth. MIC bound: limit read from a one-dose screen. A number after MIC or MFC names an inhibition level or a share of isolates. An empty or dashed field is not shown. Percent inhibition refers to the dose given; in toxicity tests it is the harm to the cells.